Experimental data: PubChem BioAssay AID504761 (Drosophila RNAi Screening Center, 2011)
The screen tested about 22,000 reagents; below is an unselected part of those that have a named target and a result. In the full data, 116 (0.52%) got an active call. 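Calls depend on retest data that are not deposited; infection was ranked per plate without normalising between plates; the unit of the infection score is not given.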 Raw values are not corrected between plates. Entries without a mark were called inactive. The record does not give: the amount of reagent, the time to read-out.

Screen: 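Fly genes whose silencing reduces dengue virus type 2 infection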 (primary screen)
System: D.Mel-2 cells from Drosophila
Reagent: long dsRNA against Drosophila genes
Challenge: infection with dengue virus type 2; dose and infection time not stated
Measurement: 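Per well on two replicate plates, imaging gave the percent of cells positive for viral envelope protein, ranked by infection, and a nuclear count of cells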
Scale: infection score: higher = more virus-infected cells; cell count: higher = more cells in the well
Call rule: 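Very low infection ranking in both replicate wells (chance probability at most 0.065), then a retest showing infection dropped 1.5-fold or more at p below 0.05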
Meaning of the calls: active = confirmed: knock-down lowers infection; inactive = not picked or not confirmed

| Target gene | dsRNA | infection score, replicate 1 | infection score, replicate 2 | cell count, replicate 1 | cell count, replicate 2 |
| --- | --- | --- | --- | --- | --- |
| Mal-A7 (Maltase A7) | DRSC06077 | 9.82 | 5.47 | 5660 | 6744 |
| CG13135 | DRSC02232 | 4.06 | 1.84 | 6773 | 6415 |
| CG13135 | DRSC27657 | 25.1 | 14.9 | 5419 | 5734 |
| dpr20 (defective proboscis extension response 20) | DRSC08265 | 6.19 | 4.79 | 6449 | 6341 |
| CG12177 | DRSC19437 | 16.3 | 8.67 | 6573 | 5930 |
| CG12177 | DRSC21524 | 2.07 | 3.59 | 5982 | 6542 |
| CG12177 | DRSC29474 | – | 18.5 | 369 | 5026 |
| Vha36-3 (Vacuolar H[+] ATPase 36kD subunit 3) | DRSC18615 | 2.65 | 14.2 | 6271 | 4877 |
| Vha36-3 (Vacuolar H[+] ATPase 36kD subunit 3) | DRSC28636 | 20.5 | 25.7 | 5929 | 5879 |
| UK114 | DRSC01973 | 4.38 | 5.02 | 6399 | 6911 |
| Sf3b1 (Splicing factor 3b subunit 1) | DRSC00535 | 6.84 | 5.29 | 994 | 1267 |
| TTLL1B (Tubulin tyrosine ligase-like 1B) | DRSC08594 | 2.55 | 4.45 | 6088 | 5664 |
| Suv3 (Suv3 helicase) | DRSC12335 | 20.1 | 28.7 | 2737 | 5074 |
| twr (twisted bristles roughened eye) | DRSC12491 | 8.14 | 11 | 1647 | 4763 |
| AstC-R1 (Allatostatin C receptor 1) | DRSC10799 | 8.15 | 2.5 | 6635 | 6475 |
| AstC-R1 (Allatostatin C receptor 1) | DRSC29648 | 9.28 | 16.9 | 2469 | 5767 |
| CG7335 | DRSC10816 | 2.09 | 4.87 | 6780 | 6443 |
| CG7335 | DRSC26314 | 12.9 | 4.32 | 6284 | 6225 |
| CG11041 | DRSC06025 | 1.32 | 5.15 | 5966 | 5670 |
| CG11041 | DRSC29269 | 18.7 | 10.8 | 5849 | 5696 |
| CG10907 | DRSC09804 | 0.69 | 2.57 | 6092 | 6035 |
| CG33108 | DRSC21613 | 3.82 | 15 | 6308 | 6111 |
| CG33108 | DRSC26424 | 2.41 | 3.74 | 4864 | 6334 |
| glob1 (globin 1) | DRSC16959 | 7.61 | 14.3 | 6769 | 6572 |
| nompC (no mechanoreceptor potential C) | DRSC03581 | 2.97 | 0.29 | 6532 | 6892 |
| Chchd2 (Coiled-coil-helix-coiled-coil-helix domain containing 2) | DRSC19931 | 1.58 | 4.53 | 5933 | 6273 |
| Chchd2 (Coiled-coil-helix-coiled-coil-helix domain containing 2) | DRSC29551 | 29.4 | 3 | 6098 | 566 |
| RhoGAP15B (Rho GTPase activating protein at 15B) | DRSC19924 | 5.77 | 5.23 | 6590 | 5644 |
| RhoGAP15B (Rho GTPase activating protein at 15B) | DRSC19925 | 0.87 | 3.17 | 7006 | 5766 |
| promL (prominin-like) | DRSC08733 | 7.4 | 3.05 | 7152 | 7090 |
| sqd (squid) | DRSC15160 | 3.35 | 20.9 | 5829 | 5589 |
| sqd (squid) | DRSC17066 | 4.01 | 3.13 | 6863 | 6961 |
| sqd (squid) | DRSC29779 | 17.8 | 10.6 | 5909 | 5883 |
| Hmbs (Hydroxymethylbilane synthase) | DRSC08632 | 5.3 | 5.35 | 6662 | 5662 |
| CG13737 | DRSC10064 | 0.97 | 2.45 | 6257 | 6658 |
| rudhira | DRSC22111 | 1.77 | 3.88 | 6505 | 6835 |
| rudhira | DRSC23144 | 1.12 | 4.51 | 5737 | 6761 |
| rudhira | DRSC24869 | 8.3 | 4.23 | 1121 | 1348 |
| t-Grip84 (testis-specific gamma-tubulin ring protein 84) | DRSC10904 | 3.58 | 1.41 | 6473 | 6255 |
| zye | DRSC11784 | 26.1 | 20.8 | 5145 | 3692 |
| Upf2 | DRSC18218 | 1.81 | 1.58 | 5691 | 5522 |
| Upf2 | DRSC27785 | 6.79 | 15.8 | 6185 | 6001 |
| betaTub97EF (beta-Tubulin at 97EF) | DRSC15666 | 2.99 | 1.31 | 5827 | 5899 |
| betaTub97EF (beta-Tubulin at 97EF) | DRSC15667 | 6.07 | 5.22 | 6033 | 6011 |
| betaTub97EF (beta-Tubulin at 97EF) | DRSC15668 | 6.19 | 4.12 | 5716 | 5973 |
| Muc4B (Mucin 4B) | DRSC18062 | 13.7 | 0.65 | 5672 | 6642 |
| Muc4B (Mucin 4B) | DRSC18063 | 9.75 | 0.75 | 5304 | 6672 |
| Muc4B (Mucin 4B) | DRSC29148 | 9.96 | 4.26 | 2660 | 5801 |
| TppII (Tripeptidyl-peptidase II) | DRSC07565 | 3.56 | 2.36 | 6242 | 6597 |
| Polr2B (RNA polymerase II subunit B) | DRSC16831 | 48 | 45.1 | 2350 | 2849 |
| Dh44-R1 (Diuretic hormone 44 receptor 1) | DRSC07172 | 6.08 | 10.2 | 6349 | 6333 |
| Dh44-R1 (Diuretic hormone 44 receptor 1) | DRSC28984 | 16.5 | 19 | 6057 | 4961 |
| Prim1 (DNA primase subunit 1) | DRSC11137 | 1.25 | 1.45 | 5185 | 5663 |
| conu (conundrum) | DRSC07810 | 3.25 | 3.17 | 6089 | 6149 |
| CG8300 | DRSC23231 | 1.81 | 5.25 | 6589 | 6651 |
| CG8300 | DRSC29869 | 28.2 | 26.6 | 6210 | 4747 |
| CG7483 | DRSC16249 | 5.46 | 14.1 | 6617 | 6550 |
| CG7483 | DRSC22432 | 3.08 | 3.36 | 5429 | 5802 |
| CG7483 | DRSC26402 | 2.2 | 7.04 | 6318 | 5181 |

In a second layout: results already given.
{"Target gene":"CG33108","dsRNA":"DRSC21613","infection score, replicate 1":3.82,"infection score, replicate 2":15,"cell count, replicate 1":6308,"cell count, replicate 2":6111}
{"Target gene":"CG33108","dsRNA":"DRSC26424","infection score, replicate 1":2.41,"infection score, replicate 2":3.74,"cell count, replicate 1":4864,"cell count, replicate 2":6334}
{"Target gene":"glob1 (globin 1)","dsRNA":"DRSC16959","infection score, replicate 1":7.61,"infection score, replicate 2":14.3,"cell count, replicate 1":6769,"cell count, replicate 2":6572}
{"Target gene":"nompC (no mechanoreceptor potential C)","dsRNA":"DRSC03581","infection score, replicate 1":2.97,"infection score, replicate 2":0.29,"cell count, replicate 1":6532,"cell count, replicate 2":6892}
{"Target gene":"Chchd2 (Coiled-coil-helix-coiled-coil-helix domain containing 2)","dsRNA":"DRSC19931","infection score, replicate 1":1.58,"infection score, replicate 2":4.53,"cell count, replicate 1":5933,"cell count, replicate 2":6273}
{"Target gene":"Chchd2 (Coiled-coil-helix-coiled-coil-helix domain containing 2)","dsRNA":"DRSC29551","infection score, replicate 1":29.4,"infection score, replicate 2":3,"cell count, replicate 1":6098,"cell count, replicate 2":566}
{"Target gene":"RhoGAP15B (Rho GTPase activating protein at 15B)","dsRNA":"DRSC19924","infection score, replicate 1":5.77,"infection score, replicate 2":5.23,"cell count, replicate 1":6590,"cell count, replicate 2":5644}
{"Target gene":"RhoGAP15B (Rho GTPase activating protein at 15B)","dsRNA":"DRSC19925","infection score, replicate 1":0.87,"infection score, replicate 2":3.17,"cell count, replicate 1":7006,"cell count, replicate 2":5766}
{"Target gene":"promL (prominin-like)","dsRNA":"DRSC08733","infection score, replicate 1":7.4,"infection score, replicate 2":3.05,"cell count, replicate 1":7152,"cell count, replicate 2":7090}
{"Target gene":"sqd (squid)","dsRNA":"DRSC15160","infection score, replicate 1":3.35,"infection score, replicate 2":20.9,"cell count, replicate 1":5829,"cell count, replicate 2":5589}
